Compound potency records, mixed from different reports. Data source: NIAID ChemDB in PubChem.

Shared fields: growth or infection tests; species: Mycobacterium tuberculosis

A number after MIC or MFC names an inhibition level or a share of isolates. ECn: concentration that inhibits the pathogen or its effect by n%. Rows are shuffled and stem from different studies. MIC bound comes from a single tested concentration. Blank or dashed fields: not listed here. Inhibition is in % at the dose shown (toxicity tests: loss of growth or viability).

SMILES,tested at,method,conditions,read-out,strain,cell line,result
O[C@@H](c1cc(C(F)(F)F)nc2c(C(F)(F)F)cccc12)[C@@H]1CCCCN1Cc1ccccc1,-,-,-,MIC,-,-,8 µM
CCN(CC)CCNc1ccc2ncn3c4ccc(O)cc4c(=O)c1c23.Cl,-,BACTEC,-,MIC bound,H37Rv,-,≤12.5 µg/mL
COC1=C(C)C(=O)c2[nH]c3ccccc3c2C1=O,-,-,-,MIC,H37Rv,-,9 µM
Cc1ccc(S(=O)(=O)NNC(=O)c2nc3ccccc3c(=O)[nH]2)cc1,-,BACTEC,-,MIC bound,H37Rv,-,>12.5 µg/mL
Cc1cc(NS(=O)(=O)c2ccc(NC(=O)N3CCC3)cc2)no1,-,broth dilution / absorbance,21 d,MIC100,H37Rv,-,4 µM
Cc1nn(-c2ccccc2)c2c1C(c1ccc(O)cc1)c1c(nc(=O)[nH]c1N)O2,62.5 µg/mL,-,-,inhibition,H37Rv,-,10%
NNC(=O)c1cc(C2CCCCC2)c2ccccc2n1,6.25 µg/mL,BACTEC,-,inhibition,H37Ra,-,0%
CC(Oc1cccc([N+](=O)[O-])c1)C(=O)N/N=C1\CCOc2ccccc21,-,-,-,EC50,H37Rv,-,~40 µg/mL
NC(=O)/C(=C\c1ccc(Br)cc1)n1nnc2ccccc21,12.5 µg/mL,-,-,inhibition,H37Rv,-,0%
NC(=S)N/N=C/c1ccc2oc3ccccc3c2c1,-,-,-,MIC,PAS-R,-,≤0.05 µg/mL
Cc1cc(NS(=O)(=O)c2ccc(NC(=O)Nc3ccc(S(=O)(=O)Nc4cc(C)on4)cc3)cc2)no1,-,broth dilution / absorbance,14 d,MIC100,H37Rv,-,2 µM
Cc1nn(-c2ccccc2)c2c1C(c1cccc([N+](=O)[O-])c1)c1c(nc(=O)[nH]c1N)O2,62.5 µg/mL,-,-,inhibition,H37Rv,-,98%
N#Cc1ccc(Nc2nc(Oc3cccc4cccnc34)nc(N3CCCCC3)n2)cc1C(F)(F)F,-,BACTEC,-,MIC,H37Rv,-,>6.25 µg/mL
O=Cc1cc2c3ccc(O)cc3[nH]c2c2ccoc12,-,-,-,MIC,H37Rv,-,51 µM
Nc1ccc(C(=O)Nc2ccc(N=Nc3ccc(S(=O)(=O)O)cc3)cc2)cc1,-,BACTEC,-,MIC,H37Rv,-,≥12.5 µg/mL
CC[C@@H](CO)NCCN[C@@H](CC)CO,-,-,-,MIC,H37Rv (ATCC 27294),-,3.12 µg/mL
Cc1nn(-c2ccccc2)c2c1C(c1ccc(O)cc1)C(C#N)=C(N)O2,62.5 µg/mL,-,-,inhibition,-,-,11%
COc1cc(C)cc2c3c([nH]c12)C(=O)c1ccccc1C3=O,-,-,-,MIC,H37Rv,-,>128 µM
N#Cc1ccc(Nc2nc(Oc3cccc4cccnc34)nc(N3CCC(Cc4ccccc4)CC3)n2)cc1C(F)(F)F,-,agar,-,MIC97,H37Rv,-,200 µg/mL
CC(=O)Nc1ccc(N=Nc2ccc(N)c3cc(S(=O)(=O)O)ccc23)cc1,12.5 µg/mL,BACTEC,-,inhibition,H37Rv,-,0%
NC[C@H]1O[C@H](O[C@H]2[C@H](O)[C@@H](O[C@H]3O[C@H](CO)[C@@H](O)[C@H](N)[C@H]3O)[C@H](N)C[C@@H]2N)[C@H](O)[C@@H](O)[C@@H]1O,-,-,-,MIC,Isolate 14,-,2 µg/mL
CC#N.CC#N.[Cl][Pd][Cl],-,resazurin,-,MIC90,H37Rv,-,481 µM
Cc1ccc(NC(=O)C(=O)Nc2ccc(C)cc2)cc1,-,-,-,MIC,-,-,1000 µM
Cc1ccc2nc(C(=O)N/N=C/c3ccc(Oc4cccc5ccccc45)cc3)[nH]c2c1,-,resazurin,-,MIC,H37Rv,-,12.5 µg/mL
COc1ccc2c(c1)[nH]c1c3ccoc3c(C=O)cc21,-,-,-,MIC,H37Rv,-,>128 µM
NNC(=O)Cc1cc(C2CCCC2)nc2c(C3CCCC3)cccc12,6.25 µg/mL,BACTEC,-,inhibition,H37Ra,-,67%
CC[C@@H](CO)NCCN[C@@H](CC)CO,-,fluorescence,-,MIC,H37Rv,-,3.13 µM
C=C1[C@H]([C@]2(C)[C@@H](OC(C)=O)CC(=O)O[C@@](C)(COC(C)=O)[C@@H]2CC(=O)OC)[C@@H](OC=O)[C@H](OC(=O)[C@H](O)[C@H](C)CC)[C@@]2(C)[C@@H](c3ccoc3)CC(=O)[C@]12O,-,BACTEC,-,MIC bound,H37Rv,-,>12.5 µg/mL
CN(C)CCCN1c2ccccc2Sc2ccc(Cl)cc21,-,-,-,MIC,23427,-,10 µg/mL
Cc1nn(-c2ccccc2)c2c1C(c1ccc(O)cc1)c1c(nc(=S)[nH]c1N)O2,62.5 µg/mL,-,-,inhibition,H37Rv,-,96%
COc1cc(/C=C(\C#N)n2nc3ccccc3n2)cc(OC)c1OC,12.5 µg/mL,-,-,inhibition,H37Rv,-,0%
CO[C@H]1/C=C/O[C@@]2(C)Oc3c(C)c(O)c4c(O)c(c(N5CCN(Cc6c(C)cc(C)cc6C)CC5)c(O)c4c3C2=O)NC(=O)/C(C)=C\C=C\[C@H](C)[C@H](O)[C@@H](C)[C@@H](O)[C@@H](C)[C@H](OC(C)=O)[C@@H]1C,-,-,-,MBC,3181-4,-,0.06 µg/mL
Cc1ccc(C2c3c(nc(=O)[nH]c3N)Oc3c2c(C)nn3-c2ccccc2)cc1,62.5 µg/mL,-,-,inhibition,H37Rv,-,45%
CCOC(=O)C1N(S(=O)(=O)c2ccc(C)cc2)C(c2ccccc2)C(c2ccccc2)C1(O)c1ccccc1,12.5 µg/mL,BACTEC,-,inhibition,H37Rv,-,30%
Cc1ccc2c(c1)[nH]c1ccccc12,-,-,-,MIC,H37Rv,-,>128 µM
Cc1nn(-c2ccccc2)c2c1C(c1cccc(Cl)c1)c1c(nc(=O)[nH]c1N)O2,62.5 µg/mL,-,-,inhibition,H37Rv,-,73%
NC(=O)/C(=C\c1ccccc1)n1nnc2ccccc21,-,-,-,EC50,H37Rv,-,>12.5 µg/mL
O=C(N/N=C/c1ccc(Oc2cc(Cl)cc(Cl)c2)cc1)c1nc2ccc([N+](=O)[O-])cc2[nH]1,-,resazurin,-,MIC,H37Rv,-,12.5 µg/mL
FC(F)(F)c1cc(NCc2cccnc2)c2cccc(C(F)(F)F)c2n1,-,-,-,MIC,-,-,>128 µM
NNC(=O)c1cc(C2C3CC4CC(C3)CC2C4)nc2ccccc12,6.25 µg/mL,BACTEC,-,inhibition,H37Ra,-,17%
CCc1ccc2c(c1)[nH]c1ccc(N)cc12,-,-,-,MIC,H37Rv,-,55 µM
CC(=O)OC[C@H]1O[C@@H](NC(=S)Nc2nc(-c3ccccc3)cc(-c3cc(Cl)ccc3O)n2)[C@H](OC(C)=O)[C@@H](OC(C)=O)[C@@H]1OC(C)=O,-,resazurin,-,MIC bound,H37Rv,-,>6.25 µg/mL
N#C/C(=C\c1cccs1)n1nc2ccccc2n1,12.5 µg/mL,-,-,inhibition,H37Rv,-,10%
O=C(N/N=C/c1ccc(Oc2ccccc2Cl)cc1)c1nc2ccccc2[nH]1,-,resazurin,-,MIC,H37Rv,-,6.25 µg/mL
O=C1c2cccc(NCCCNCCO)c2C(=O)c2cccc(NCCCNCCO)c21,12.5 µg/mL,BACTEC,-,inhibition,H37Rv,-,46%
Cc1cc(C)[nH]n1,-,resazurin,-,MIC90,H37Rv,-,>250 µg/mL
CC(=S)N1CCCC[C@H]1[C@@H](O)c1cc(C(F)(F)F)nc2c(C(F)(F)F)cccc12,-,-,-,MIC,-,-,>128 µM
Cc1nn(-c2ccccc2)c2c1C(c1ccc(Cl)cc1)C(C#N)=C(N)O2,62.5 µg/mL,-,-,inhibition,H37Rv,-,29%
CNC(=O)OCc1c(COC(=O)NC)c(-c2ccc(C(C)(C)C)cc2)n(C)c1C,6.25 µg/mL,resazurin,-,inhibition,H37Rv,-,30%
CC[C@@H](CO)NCCN[C@@H](CC)CO,-,-,-,MIC,Isolate 4,-,8 µg/mL
CC(=O)N1CCN(c2nc(Nc3ccc(C#N)c(C(F)(F)F)c3)nc(Oc3cccc4cccnc34)n2)CC1,-,BACTEC,-,MIC,H37Rv,-,>6.25 µg/mL
CC1=NN(C(=O)CC(=O)NC(=O)CC(=O)Nc2ccccc2F)C(=O)C1N=Nc1ccc([N+](=O)[O-])cc1,-,BACTEC,-,MIC bound,H37Rv,-,>12.8 µg/mL
Cc1nn(-c2ccccc2)c2c1C(c1cccc(Br)c1)c1c(nc(=O)[nH]c1N)O2,62.5 µg/mL,-,-,inhibition,H37Rv,-,9%
C[C@H]1COc2c(N3CCN(C)CC3)c(F)cc3c(=O)c(C(=O)O)cn1c23,-,-,-,MIC,Isolate 17,-,0.25 µg/mL
COC(=O)c1n[nH]c(C)c1N=NN1CCC(C(N)=O)CC1,-,-,-,MIC,H37Rv,VERO,6.25 µg/mL
N#Cc1ccc(Nc2nc(Oc3cccc4cccnc34)nc(N3CCN(C(c4ccccc4)c4ccccc4)CC3)n2)cc1C(F)(F)F,-,BACTEC,-,MIC,H37Rv,-,>6.25 µg/mL
NNC(=O)c1cc(C2CCCC2)c2ccccc2n1,6.25 µg/mL,BACTEC,-,inhibition,H37Ra,-,0%
NC[C@@H](O)[C@@H](O)[C@H](O)[C@H](O)CN,-,-,-,MIC,H37Rv (ATCC 27294),-,>100 µg/mL
CC(C)NC(=O)OCCN=c1c2ccccc2ccc2ccccc12,12.5 µg/mL,BACTEC,-,inhibition,H37Rv,-,12%
O[C@@H]([C@H](O)[C@H](O)CN=Cc1ccccc1Cl)[C@H](O)CN=Cc1ccccc1Cl,-,-,-,MIC,H37Rv (ATCC 27294),-,>100 µg/mL
COc1ccc2nccc(NCCCN3CCN(CCCNc4ccnc5ccc(OC)cc45)CC3)c2c1.Cl.Cl.Cl.Cl,12.5 µg/mL,BACTEC,-,inhibition,H37Rv,-,54%
Cc1cc(C)[nH]n1.[Cl][Pd][Cl].c1ccc(P(c2ccccc2)c2ccccc2)cc1,-,resazurin,-,MIC90,H37Rv,-,>250 µg/mL
O=C(N/N=C/c1ccc(Oc2cccc3ccccc23)cc1)c1nc2ccc(Cl)cc2[nH]1,-,resazurin,-,MIC,H37Rv,-,12.5 µg/mL
CN(C)CCNc1ccc2ncn3c4ccc(O)cc4c(=O)c1c23.Cl,12.5 µg/mL,BACTEC,-,inhibition,H37Rv,-,80%
N#C/C(=C/C1CCCCC1)n1nnc2ccccc21,12.5 µg/mL,-,-,inhibition,H37Rv,-,0%
COc1ccc(P2(=S)OC(C)(C)C(C)(C)O2)cc1,-,BACTEC,-,MIC bound,H37Rv,-,>12.5 µg/mL
Cc1cc(NS(=O)(=O)c2ccc(NC(=O)N(C(C)C)C(C)C)cc2)no1,-,broth dilution / absorbance,14 d,MIC100,H37Rv,-,125 µM
CCOC(=O)c1[nH]c2ccccc2c1/C=N/NC(N)=S,6.25 µg/mL,BACTEC,-,inhibition,H37Rv,-,74%
N#C/C(=C\c1ccc[nH]1)n1nc2ccccc2n1,12.5 µg/mL,-,-,inhibition,H37Rv,-,35%
NNC(=O)Cc1cc(C2CCCCC2)nc2ccccc12,6.25 µg/mL,BACTEC,-,inhibition,H37Ra,-,12%
O=[N+]([O-])c1cccc(C=NC[C@@H](O)[C@@H](O)[C@H](O)[C@H](O)CN=Cc2cccc([N+](=O)[O-])c2)c1,-,-,-,MIC,H37Rv (ATCC 27294),-,25 µg/mL
Cc1cc(Oc2ccc(/C=N/NC(=O)c3nc4ccc([N+](=O)[O-])cc4[nH]3)cc2)ccc1Cl,-,resazurin,-,MIC,H37Rv,-,1.5 µg/mL
NNC(=O)c1c(C2CCCC2)nc2ccccc2c1C1CCCC1,6.25 µg/mL,BACTEC,-,inhibition,H37Ra,-,56%
O=C(N/N=C/c1ccc(Oc2ccc(Cl)cc2)cc1)c1nc2ccccc2[nH]1,-,resazurin,-,MIC,H37Rv,-,3.125 µg/mL
Oc1cc(Cl)ccc1Oc1ccc(Cl)cc1Cl,-,-,-,MIC,M290 (inhA promoter),-,60 µM
O=[N+]([O-])c1ccc(N=NNc2ccc([N+](=O)[O-])cc2Br)c(Br)c1,-,luminescence,-,EC90,H37Ra-lux,-,4.95 µM
O=[N+]([O-])c1ccc(N/N=C/c2nc3ccccc3[nH]2)c([N+](=O)[O-])c1,6.25 µg/mL,resazurin,-,inhibition,H37Rv,-,4%
CCNC(=O)Nc1ccc(S(=O)(=O)Nc2cc(C)on2)cc1,-,broth dilution / absorbance,21 d,MIC100,H37Rv,-,62.5 µM
Nc1c(O)c(S(=O)(=O)O)c(O)c2c1C(=O)c1ccccc1C2=O,-,BACTEC,-,MIC bound,H37Rv,-,>12.5 µg/mL
NNC(=O)Cc1ccnc2ccccc12,-,BACTEC,-,MIC,H37Ra,-,>6.25 µg/mL
NNC(=O)c1ccncc1,-,broth dilution / absorbance,14 d,MIC100,H37Rv,-,1 µM
CCCCCNC(=O)c1cc(C2C3CC4CC(C3)CC2C4)c2ccccc2n1,-,BACTEC,-,MIC,H37Ra,-,>6.25 µg/mL
NC(=O)/C(=C\c1ccc(Cl)cc1)n1nc2ccccc2n1,-,-,-,EC50,H37Rv,-,>12.5 µg/mL
CN(C=O)C(=S)[S][Sb]([S]C(=S)N(C)C=O)[S]c1nc2ccc(N=Nc3ccc(NS(=O)(=O)c4ccc(NC(=O)C(N5CC5)(N5CC5)N5CC5)cc4)cc3)cc2s1,-,BACTEC,-,MIC bound,H37Rv,-,>128 µg/mL
COc1cccc(-c2cc(C(F)(F)F)nc3c(C(F)(F)F)cccc23)c1,-,-,-,MIC,-,-,>128 µM

7 of the rows above, restated:

SMILES | tested at | method | conditions | read-out | strain | cell line | result
C[C@H]1COc2c(N3CCN(C)CC3)c(F)cc3c(=O)c(C(=O)O)cn1c23 | - | - | - | MIC | Isolate 17 | - | 0.25 µg/mL
FC(F)(F)c1cc(NCc2cccnc2)c2cccc(C(F)(F)F)c2n1 | - | - | - | MIC | - | - | >128 µM
Cc1nn(-c2ccccc2)c2c1C(c1cccc([N+](=O)[O-])c1)c1c(nc(=O)[nH]c1N)O2 | 62.5 µg/mL | - | - | inhibition | H37Rv | - | 98%
NC(=O)/C(=C\c1ccc(Cl)cc1)n1nc2ccccc2n1 | - | - | - | EC50 | H37Rv | - | >12.5 µg/mL
Cc1nn(-c2ccccc2)c2c1C(c1cccc(Cl)c1)c1c(nc(=O)[nH]c1N)O2 | 62.5 µg/mL | - | - | inhibition | H37Rv | - | 73%
COc1cc(C)cc2c3c([nH]c12)C(=O)c1ccccc1C3=O | - | - | - | MIC | H37Rv | - | >128 µM
CC[C@@H](CO)NCCN[C@@H](CC)CO | - | - | - | MIC | H37Rv (ATCC 27294) | - | 3.12 µg/mL